Pooled drug test results. Numbers come from NIAID ChemDB, via PubChem.

Common to all: growth or infection tests; species: HIV-1; read-out: fold resistance

Fold resistance has wild type as its base. An empty or dashed field is not shown. Rows are shuffled and stem from different studies.

| structure | conditions | cells | strain or isolate | mutations | read by | result |
|---|---|---|---|---|---|---|
| CC(=O)c1ccc(C)cc1NC(C(N)=O)c1c(Cl)cccc1Cl |  | CEM + CEM-SS | Dihydrocostatolide-resistant (RT-L100I) | RT-L100I | XTT | 0.667 |
| CCN1C(=O)N(Cc2ccccc2)S(=O)(=O)c2cscc21 |  | CEM | IIIB | RT-K103N | syncytia | >207 |
| CCN[C@H]1CO[C@@H]2OCC[C@H](OC(=O)N[C@@H](Cc3ccccc3)[C@H](O)CN(CC(C)C)S(=O)(=O)c3ccc4nc(NC5CC5)sc4c3)[C@@H]21 |  | MT-4 | NL4-3 | L10I M46L I54V V82A | p24 / luminescence | 1 |
| CC(=O)Oc1ccc(/C=C/C(=O)O[C@@H](C(=O)O)[C@@H](OC(=O)/C=C/c2ccc(OC(C)=O)c(OC(C)=O)c2)C(=O)O)cc1OC(C)=O |  | MT-4 | NL4-3 | AMD2763-resistant | cytopathic effect / MTT | >9 |
| CC(C)CN(C[C@@H](O)[C@H](Cc1ccccc1)NC(=O)O[C@H]1CCOC1)S(=O)(=O)c1ccc(N)cc1 |  | MT-2 | IIIB | D437N | p24 / ELISA | 0.9 |
| Cc1cn([C@H]2C[C@H](F)[C@@H](CO)O2)c(=O)[nH]c1=O |  | PBMC | GW908 AZT-resistant (RT V75I/F77L/F116Y/Q151M) | RT-V75I F77L F116Y Q151M | antigen | 0.6 |
| Cc1cn([C@H]2C[C@H](N=[N+]=[N-])[C@@H](CO)O2)c(=O)[nH]c1=O |  | PBMC | MM | MDR | p24 | 41 |
| Cc1cn([C@H]2C=C[C@@H](CO)O2)c(=O)[nH]c1=O |  | MT-4 | DI-06.92 (HXB2 RT-K70R) | RT-K70R | cytopathic effect | 7.6 |
| Cc1cc(O)cc(S(=O)(=O)c2cccc(N)c2C#N)c1 |  | HeLa + HELA CD4+ |  | RT-K103N V108I | β-galactosidase | 159 |
| CN[C@H]1CO[C@@H]2OCC[C@H](OC(=O)N[C@@H](Cc3cccc(OC)c3)[C@H](O)CN(CC(C)C)S(=O)(=O)c3ccc4nc(NC(C)C)sc4c3)[C@@H]21 |  | MT-4 | NL4-3 | L10I I54V K20R L24I V32I L33F M36I M46I I54M L63P K70Q V82I I84V L89M | p24 / luminescence | 2.9 |
| COc1cncc(-c2cnc(C(C)(C)N3CCN(C[C@@H](O)C[C@@H](Cc4nnc(-c5ccccc5)o4)C(=O)N[C@H]4c5ccccc5OC[C@H]4O)[C@H](C(=O)NCC(F)(F)F)C3)o2)c1 |  | MT-4 | Q-60 Clinical isolate | PR-L10I N37S R41K M46I I54V I62V L63P A71V V77I V82A L90M I93L | p24 | 4 |
| CC(C)CN(C[C@@H](O)[C@H](Cc1ccccc1)NC(=O)O[C@H]1CCOC1)S(=O)(=O)c1ccc(N)cc1 |  | MT-4 | NL4-3 | L23I E34Q K43I M46I I50L G51A L63P A71V V82A T91A | p24 / luminescence | 7.1 |
| Cc1ccnc2c1NC(=O)c1cccnc1N2C1CC1 |  | MT-4 | IIIB-R (RT-Y181C) | RT-Y181C | cytopathic effect / MTT | 2910 |
| Cc1cn([C@H]2C[C@H](N=[N+]=[N-])[C@@H](CO)O2)c(=O)[nH]c1=O |  | CEM + CEM-SS | HEPT-resistant (RT P236L) | RT-P236L | XTT | 0.2 |
| N#CCN1C(=O)N(Cc2ccccc2)S(=O)(=O)c2cscc21 |  | CEM | IIIB | RT-E138K | syncytia | 6 |
| CCCc1nnc(C[C@H](C[C@H](O)CN2CCN(C(C)(C)c3ncc(-c4ccc(Cl)cc4)o3)C[C@H]2C(=O)NCC(F)(F)F)C(=O)N[C@H]2c3ccccc3OC[C@H]2O)o1 |  | MT-4 | K-60 Clinical isolate | PR-L10I M46I I54V Q58E L63P I64V V77I V82F I84V L90M I93L | p24 | ≥2 |
| Cc1cc(C)cc(Sc2c(C(C)C)c(=O)[nH]c(=S)n2COCCO)c1 |  | CEM | IIIB | RT-E138K | syncytia | 3.33 |
| C[C@@H](NC(=S)Nc1ccc(Br)cn1)c1cccc2ccccc12 |  | PBMC | NNRTI-resistant (RT Y181C K103N) A17V | RT-Y181C K103N | p24 | 191 |
| Nc1ncnc2c1ncn2CCOCP(=O)(O)O |  | MT-2 | R82150 (RT-L100I) | RT-L100I | cytopathic effect | 0.789 |
| Cc1csc(NC(=S)N[C@H](C)c2ccccc2)n1 |  | PBMC | NNRTI-resistant (RT Y181C K103N) A17V | RT-Y181C K103N | p24 | 196 |
| Nc1nc(NC2CC2)c2ncn([C@H]3C=C[C@@H](CO)C3)c2n1 |  | PBMC | M184V | RT-M184V | p24 | 3.5 |
| Cc1c(O)cccc1C(=O)N[C@@H](CSc1ccccc1)[C@H](O)CN1C[C@H]2CCCC[C@H]2C[C@H]1C(=O)NC(C)(C)C |  | PBMC | TM | MDR | p24 | >71 |
| O=c1[nH]cnc2c1ncn2[C@H]1CC[C@@H](CO)O1 |  | CEM | IIIB | RT-E138K | syncytia | 1.15 |
| O=C(O)P(=O)(O)O |  | MT-2 | R82150 (RT-L100I) | RT-L100I | cytopathic effect | 1.14 |
| C[C@H](Cn1cnc2c(N)ncnc21)OCP(=O)(O)O | pseudotyped | MT-2 | HXB2 | T66A | recombinant virus assay / single cycle | 1 |
| Cc1c(Sc2ccccc2)n(COCCO)c(=O)[nH]c1=O |  | MT-2 | R82150 (RT-L100I) | RT-L100I | cytopathic effect | 3.48 |
| O=C(O)P(=O)(O)O |  | HT4LACZ-1 + HT4 LacZ-1 | HX88C (RT-W88C) | RT-W88C |  | 1.7 |
| Cc1cc(Br)cc(S(=O)(=O)c2cccc(N)c2C#N)c1 |  | HeLa + HELA CD4+ |  | RT-L100I K103N | β-galactosidase | 273 |
| O=C1Nc2ccc(Cl)cc2[C@@](C#CC2CC2)(C(F)(F)F)N1 |  |  |  | RT-K103N V108I |  | 19 |
| Cc1ccnc2c1NC(=O)c1cccnc1N2C1CC1 |  | PBMC | BCF01 | RT-A98G K103R Y181C |  | 150 |
| Cc1ccnc2c1NC(=O)c1cccnc1N2C1CC1 |  | CEM + CEM-SS | NL4-3(RT-4XAZT+L100I) | RT-D67N K70R L100I T215Y K219Q | XTT | 1.5 |
| Cc1ccccc1Cc1cccc(C(=O)CC(=O)C(=O)O)c1 |  |  |  | INTG-T66I M154I | p24 | 1.5 |
| CC(C)Nc1cccnc1N1CCN(C(=O)c2cc3cc(NS(C)(=O)=O)ccc3[nH]2)CC1 |  | MT-4 | FO-08.96 (HXB2 RT F77L F116Y Q151M) | RT-F77L F116Y Q151M | cytopathic effect | 3 |
| C[C@@H](NC(=S)Nc1ccc(Cl)cn1)c1cccc2ccccc12 |  | PBMC | NNRTI-resistant (RT Y181C) A17 | RT-Y181C | p24 | 43 |
| C#CCN1C(=O)N(Cc2ccccc2)S(=O)(=O)c2cscc21 |  | CEM | IIIB | RT-E138K | syncytia | 5.9 |
| Nc1ccn([C@H]2CC[C@@H](CO)O2)c(=O)n1 |  | CEM | IIIB | RT-E138K | syncytia | 2.7 |
| CC(C)(c1ncc(-c2ccc(F)cc2)o1)N1CCN(C[C@@H](O)C[C@@H](Cc2nnco2)C(=O)N[C@H]2c3ccccc3OC[C@H]2O)[C@H](C(=O)NCC(F)(F)F)C1 |  | MT-4 | Q-60 Clinical isolate | PR-L10I N37S R41K M46I I54V I62V L63P A71V V77I V82A L90M I93L | p24 | 0.248 |
| O=C(NCc1ccc(F)cc1)c1nc(N2CCCCS2(=O)=O)c2cccnc2c1O |  |  |  | INTG-T66I S153Y | p24 | 2.5 |
| O=C(c1ccccc1)c1cnc(Cc2ccc(Nc3c(Cl)cccc3Cl)cc2)[nH]1 |  | MT-4 | NL4-3 | gp120 F145L N269E Q278H I288V N293D FNSTW364-368 deletion | p24 | >15.4 |
| Nc1nc2c(ncn2[C@H]2CO[C@@H](CO)O2)c(=O)[nH]1 |  |  | RT-41L 74V 215Y 106A | RT-M41L L74V V106A T215Y |  | 2.5 |
| Cc1cc(Cl)cc(S(=O)(=O)c2cccc(N)c2C#N)c1 |  | HeLa + HELA CD4+ |  | RT-K103N V108I | β-galactosidase | 3670 |
| CC(C)=CCN1Cc2cccc3[nH]c(=S)n(c23)C[C@@H]1C |  | MT-2 | R82150 (RT-L100I) | RT-L100I | cytopathic effect | >187.5 |
| CC(C)(C)NC(=O)[C@@H]1C[C@@H]2CCCC[C@@H]2CN1C[C@@H](O)[C@H](Cc1ccccc1)NC(=O)[C@H](CC(N)=O)NC(=O)c1ccc2ccccc2n1 |  | MT-4 | NL4-3 | PR-I84V | p24 | 2 |
| Nc1ncnc2c1ncn2CCOCP(=O)(O)O |  | CEM | IIIB | RT-E138K | syncytia | 0.824 |
| C[C@H](CNC(=S)Nc1ccc(Br)cn1)c1ccccc1 |  | PBMC | NNRTI-resistant (RT Y181C) A17 | RT-Y181C | p24 | 39 |
| O=C1N(Cc2ccccc2)c2cscc2S(=O)(=O)N1Cc1ccccc1 |  | CEM | IIIB | RT-V106A | syncytia | ≥5.56 |
| COC(=O)N[C@H](C(=O)N[C@@H](Cc1ccccc1)[C@@H](O)CN(Cc1ccc(-c2ccccn2)cc1)NC(=O)[C@@H](NC(=O)OC)C(C)(C)C)C(C)(C)C |  | HeLa | Site-directed PR mutant 04 | PR-M46I I54V A71V V82A | β-galactosidase | 1.5 |
| Cc1ccnc2c1NC(=O)c1cccnc1N2C1CC1 |  | MT-4 | NL4-3 | RT-K103N Y181C | cytopathic effect | >250 |
| Cc1cn([C@H]2C[C@H](N=[N+]=[N-])[C@@H](CO)O2)c(=O)[nH]c1=O |  | MT-2 | IIIB | R41K | p24 / ELISA | 0.5 |
| COc1ccc(S(=O)(=O)N(CC(C)C)C[C@@H](O)[C@H](Cc2ccccc2)NC(=O)O[C@H]2CCO[C@H]3OC[C@H](O)[C@H]32)cc1 |  | MT-4 | NL4-3 | L10I I15V K20R L24I V32I M36I M46I L63P K70Q V82A I84V L89M | p24 / luminescence | 13 |
| Nc1ccn([C@@H]2CO[C@H](CO)S2)c(=O)n1 |  | CBMC | HXB2D (RT-K65R) | RT-K65R | RT activity | 1.91 |
| Cc1cn([C@H]2C[C@H](N=[N+]=[N-])[C@@H](CO)O2)c(=O)[nH]c1=O |  | PBMC | BCF03 | RT-A98G Y181C |  | 1 |
| O=c1[nH]cnc2c1ncn2[C@H]1CC[C@@H](CO)O1 |  | PBMC | TM | MDR | p24 | 5 |
| CCCCCCCSc1nsc(NC(=O)Nc2ccccc2)n1 |  | MT-4 | NL4-3 | AMD3100-resistant | cytopathic effect | 1.3 |
| Nc1ccn([C@H]2CC[C@@H](CO)O2)c(=O)n1 |  | MT-4 | BI-03.97 (HXB2(RT-A62V S68G T69D V75I F77L F116Y Q151M)) | RT-A62V S68G T69D V75I F77L F116Y Q151M | cytopathic effect | >23.4 |
| Cc1cn([C@@H]2O[C@H](CO[Si](C)(C)C(C)(C)C)[C@@]3(OS(=O)(=O)C=C3N)[C@H]2O[Si](C)(C)C(C)(C)C)c(=O)[nH]c1=O |  | CEM | IIIB | RT-E138K | syncytia | 124 |
| CN1C(=O)N(Cc2ccccc2)S(=O)(=O)c2cscc21 |  | CEM | IIIB | RT-K103N | syncytia | >141 |
| CCc1cc(NCc2nc3c(Cl)ccc(Cl)c3o2)c(=O)[nH]c1C |  | MT-4 | NL4-3 | RT-K103N Y181C | p24 | >30 |
| COc1cc(C(F)(F)F)cc(S(=O)(=O)c2cccc(N)c2C#N)c1 |  | HeLa + HELA CD4+ |  | RT-K103N P225H | β-galactosidase | 393 |
| CC(C)CN(C[C@@H](O)[C@H](Cc1ccccc1)NC(=O)[C@H](CC(N)=O)NC(=O)c1ccc2ccccc2n1)C(=O)NC(C)(C)C |  | MT-4 | NL4-3 | PR-L10R | p24 | 0.5 |
| CC(C)(C)NC(=O)[C@@H]1CN(C(C)(C)c2cc3cnccc3o2)CCN1C[C@@H](O)C[C@@H](Cc1ccccc1)C(=O)N[C@H]1c2ccccc2C[C@H]1O |  |  | K-60C (PR L10I S37N M46I I54V Q58E L63P I64V V77I V82F L90M I93L) | PR-L10I S37N M46I I54V Q58E L63P I64V V77I V82F L90M I93L |  | >66.7 |
| CC(=O)c1ccccc1NC(C(N)=O)c1c(Cl)cccc1Cl |  | MT-4 | DLV-resistant IIIB (RT-L100I) | RT-L100I | p24 | 43.3 |

For reference, 4 entries again:

structure	conditions	cells	strain or isolate	mutations	read by	result
Nc1ccn([C@@H]2CO[C@H](CO)S2)c(=O)n1		CBMC	HXB2D (RT-K65R)	RT-K65R	RT activity	1.91
CN1C(=O)N(Cc2ccccc2)S(=O)(=O)c2cscc21		CEM	IIIB	RT-K103N	syncytia	>141
O=C1Nc2ccc(Cl)cc2[C@@](C#CC2CC2)(C(F)(F)F)N1				RT-K103N V108I		19
Cc1c(Sc2ccccc2)n(COCCO)c(=O)[nH]c1=O		MT-2	R82150 (RT-L100I)	RT-L100I	cytopathic effect	3.48